Anti-infective test results gathered from many reports (values: NIAID ChemDB through PubChem).

ICn is the concentration giving n% inhibition. A number after MIC or MFC names an inhibition level or a share of isolates. Inhibition is in % at the dose shown (toxicity tests: loss of growth or viability). ECn: concentration that inhibits the pathogen or its effect by n%. CCn: concentration that lowers growth or viability of the cells by n%. An empty or dashed field is not shown. Neighbouring rows are from separate reports. Two numbers with a dash give a range or band.

compound	species	kind	cell line	target	read by	tested at	strain or isolate	measure	value
O=c1c(-c2ccccc2Cl)c(O)c2cccnc2n1O		toxicity	HeLa					CC50	<100 µM
Nc1ccc2cc([N+](=O)[O-])cc(S(=O)(=O)[O-])c2c1	Herpes simplex virus	culture	Human amnion AV3 cells		cytopathic effect	10 µg/mL		inhibition	0%
O=C(O)c1cc2nc(-c3ccc(Oc4ccccc4)cc3)cc(-c3ccc(Cl)c(Cl)c3)n2n1	Hepatitis C virus	target		RNA-dependent RNA polymerase				IC50	1–10 µM
COc1cc(-c2ccc(N=Nc3ccc4c(S(=O)(=O)O)cc(S(=O)(=O)O)c(N)c4c3O)c(OC)c2)ccc1N=Nc1ccc2c(S(=O)(=O)O)cc(S(=O)(=O)O)c(N)c2c1O	Herpes simplex virus	culture	Human conjunctiva cells		cytopathic effect	10 µg/mL		inhibition	30%
Nc1nc(N)c2c(n1)Cc1c(Cl)cccc1-2	Cryptosporidium parvum	target		Dihydrofolate reductase			TYPE 1	IC50	>10 µM
Oc1ccccc1C=Nc1ccccc1O	Cryptococcus gattii	culture					23/10993	MIC99	11.3 µg/mL
O=C(NCCc1ccc2c(n1)NCCC2)NC(c1ccccc1)c1ccccc1		toxicity	PBMC					CC50	50 µM
C=CCc1c(-c2ccc(OCc3ccccc3)cc2)nc2cc(C(=O)O)[nH]n2c1=O	Hepatitis C virus	target		RNA-dependent RNA polymerase				IC50	>10 µM
CCOC(=O)c1c(O)c2cc(-c3cccc(OC)c3)cnc2n(O)c1=O		toxicity	HeLa					CC50	<100 µM
Fc1ccccc1N1CCN(c2cncc(-c3ccc(C(F)(F)F)cc3)n2)CC1	Cytomegalovirus	target		UL97 kinase		1 µM		inhibition	<50%
C=CCc1ccc(OC)c(OC)c1	Candida tropicalis	culture			turbidity		3167	MIC90	345 µg/mL
CC(=O)c1ccc(-c2cncc(N3CCN(c4ccccn4)CC3)n2)cc1	Cytomegalovirus	target		UL97 kinase				IC50	<10 µM
O=C(NCCc1ccc2c(n1)NCCC2)Nc1ccc(C(F)(F)F)cc1		toxicity	PBMC					CC50	0.6 µM
O=S(=O)([O-])c1cc(NS(=O)(=O)c2ccccc2)c2c(S(=O)(=O)[O-])cc(S(=O)(=O)[O-])cc2c1	Rhinovirus	culture	Human amnion AV3 cells		cytopathic effect	10 µg/mL		inhibition	0%
O=C(NCCc1ccc2c(n1)NCCC2)Nc1cccc(C(F)(F)F)c1		toxicity	PBMC					CC50	25 µM
Nc1cccc(S(=O)(=O)O)c1	Herpes simplex virus	culture	Human amnion AV3 cells		cytopathic effect	5 µg/mL		inhibition	33%
O=C(NCCc1ccc2c(n1)NCCC2)Nc1cc(C(F)(F)F)ccc1F		toxicity	PBMC					CC50	30 µM
CC(C)C(=O)Nc1cnn2c(C3CCCCC3)c(-c3ccc(OCc4ccccc4)cc3)cnc12	Hepatitis C virus	target		RNA-dependent RNA polymerase				IC50	>10 µM
CCOC(=O)c1c(C)nc(NCCCCNc2ccnc3cc(Cl)ccc23)nc1-c1ccccc1	Cryptococcus gattii	culture					547/OTTI-97-PI-10	MIC99	16 µg/mL
CCC(CC)O[C@@H]1C=C(C(=O)O)C[C@H](N)[C@H]1NC(C)=O	Influenza A virus	culture	MDCK		visual reading		H1N1 A/Bayern/09/95	EC50	3 µM
CCOC(=O)c1ccc(OCCC2CCN(c3ccc(C)nn3)CC2)cc1	Rhinovirus	culture	KB		neutral red		47-CV21 (ICAM-1 receptor group 21)	EC50	0.271 µM
O=C(O)c1cc2nc(-c3ccc(Cl)cc3)cc(Nc3ccc(Oc4ccccc4)cc3)n2n1	Hepatitis C virus	target		RNA-dependent RNA polymerase				IC50	>10 µM
Nc1nc(N)c2nc(CN3c4ccccc4C=Cc4ccccc43)cnc2n1	Cryptosporidium parvum	target		Dihydrofolate reductase			TYPE 2	IC50	2.1 µM
Fc1ccc(N2CCCCC2)c(NC(=S)c2ccncc2)c1		host protein		MAP2K7	kinase activity	10 µM		inhibition	10.8%
COc1cc(NCc2cccc3nc(N)nc(N)c23)cc(OC)c1OC	Cryptosporidium parvum	target		Dihydrofolate reductase			TYPE 1	IC50	>10 µM
c1cncc(-c2cncc(N3CCN(c4cccc5[nH]ccc45)CC3)n2)c1	Cytomegalovirus	target		UL97 kinase				IC50	<10 µM
O=C(Nc1ccc(S(=O)(=O)[O-])c2cccc(S(=O)(=O)[O-])c12)c1ccccc1	Herpes simplex virus	culture	Human amnion AV3 cells		cytopathic effect	50 µg/mL		inhibition	0%
CCOC(=O)c1c(C)nc(NCCCCNc2ccnc3cc(Cl)ccc23)nc1-c1ccccc1[N+](=O)[O-]	Cryptococcus gattii	culture					L-28/02	MIC99	8 µg/mL
c1ccc(N2CCN(c3cncc(-c4ccc5ccccc5c4)n3)CC2)cc1	Cytomegalovirus	target		UL97 kinase				IC50	<10 µM
O=C(NS(=O)(=O)Cc1ccccc1)c1cnn2c(C3CCCCC3)c(-c3ccc(F)cc3)cnc12	Hepatitis C virus	target		RNA-dependent RNA polymerase				IC50	1–10 µM
COCCOc1ccccc1NC(=O)NCCc1ccc2c(n1)NCCC2		toxicity	PBMC					CC50	50 µM
Cc1ccc(-c2cncc(N3CCN(c4ccccn4)CC3)n2)cc1C	Cytomegalovirus	target		UL97 kinase				IC50	<10 µM
O=C(N[C@@H](Cc1cc2ccccc2[nH]1)C(=O)O)c1cc2nc(-c3ccco3)c(C3CCCCC3)c(=O)n2[nH]1	Hepatitis C virus	target		RNA-dependent RNA polymerase				IC50	<1 µM
COc1ccc(CNC(=O)NCCc2ccc3c(n2)NCCC3)cc1		toxicity	PBMC					CC50	50 µM
CCOC(=O)c1c(C)nc(NCCCCNc2ccnc3cc(Cl)ccc23)nc1-c1ccc(F)cc1	Cryptococcus neoformans	culture					C-3-1	MIC99	2 µg/mL
COc1cc(-c2sc3nc(N)nc(N)c3c2C)cc(OC)c1OC	Cryptosporidium parvum	target		Dihydrofolate reductase			TYPE 2	IC50	>10 µM
Oc1ccccc1N=Cc1ccc2c(c1)OCO2	Cryptococcus gattii	culture					LMM 818	MIC99	11.3 µg/mL
C[C@H](NC(=O)c1cnn2c(C3CCCCC3)c(-c3ccc(F)cc3)cnc12)C(=O)O	Hepatitis C virus	target		RNA-dependent RNA polymerase				IC50	1–10 µM
NCc1cccc(-c2ccc3c(c2)CN(c2cc(=O)n(O)c4ncccc24)CC3)c1		toxicity	HeLa					CC50	<100 µM
CC(=O)c1ccc(NC(=O)NCCc2ccc3c(n2)NCCC3)cc1		toxicity	PBMC					CC50	18 µM
Fc1ccc(COc2ccc(-c3cnc4c(-c5nn[nH]n5)cnn4c3C3CCCCC3)cc2)cc1C(F)(F)F	Hepatitis C virus	target		RNA-dependent RNA polymerase				IC50	1–10 µM
Cc1nc(NCCCCNc2ccnc3cc(Cl)ccc23)nc(-c2ccccc2[N+](=O)[O-])c1C(=O)OC(C)C	Cryptococcus neoformans	culture					VM-MCMMPI	MIC99	8 µg/mL
COc1ccc(N2CCN(c3cncc(-c4ccc(F)cc4)n3)CC2)cc1	Cytomegalovirus	target		UL97 kinase		1 µM		inhibition	<50%
COc1cc(CCc2cc3c(N)nc(N)nc3s2)c(Br)c(OC)c1OC	Cryptosporidium parvum	target		Dihydrofolate reductase			TYPE 2	IC50	5.1 µM
Nc1ccc(-c2cccc(Cc3cc(=O)n(O)c4ncccc34)c2)cc1		toxicity	HeLa					CC50	<100 µM
O=S(=O)(O)c1ccc2cc(O)c(S(=O)(=O)O)cc2c1	Herpes simplex virus	culture	Human amnion AV3 cells		cytopathic effect	5 µg/mL		inhibition	0%
CCOC(=O)c1cnn2c(-c3ccc(Cl)cc3)cc(-c3ccc(Cl)cc3)nc12	Hepatitis C virus	target		RNA-dependent RNA polymerase				IC50	>10 µM
Cc1nccn1-c1cccc(CCNC(=O)Nc2cccc(F)c2)n1		toxicity	PBMC					CC50	19.7 µM
CCOC(=O)c1cnc(NCCCCNc2ccnc3cc(Cl)ccc23)nc1C	Cryptococcus neoformans	culture					C-3-1	MIC99	2 µg/mL
Nc1nc(N)c2c(n1)Cc1c-2ccc(Cl)c1Cl	Cryptosporidium parvum	target		Dihydrofolate reductase			TYPE 2	IC50	>10 µM
Nc1c(S(=O)(=O)[O-])cc2cc(S(=O)(=O)[O-])ccc2c1O	Herpes simplex virus	culture	Human amnion AV3 cells		cytopathic effect	10 µg/mL		inhibition	0%
Nc1nc(N)c2c(n1)CCC(Cc1ccc(OC(F)(F)F)cc1)C2	Cryptosporidium parvum	target		Dihydrofolate reductase			TYPE 1	IC50	0.53 µM
O=C(NCCCCc1ccc2c(n1)NCCC2)Nc1cccc(F)c1		toxicity	PBMC					CC50	50 µM
O=[N+]([O-])c1cc([N+](=O)[O-])c2ccc(S(=O)(=O)O)cc2c1O	Adenovirus	culture	Human amnion AV3 cells		cytopathic effect	5 µg/mL	TYPE 3	inhibition	0%
Nc1nc(N)c2c(CNc3cc(Cl)c(-n4cccc4)c(Cl)c3)c(Br)sc2n1	Cryptosporidium parvum	target		Dihydrofolate reductase			TYPE 2	IC50	>10 µM

For reference, 5 entries again:

compound | species | kind | cell line | target | read by | tested at | strain or isolate | measure | value
COc1cc(-c2ccc(N=Nc3ccc4c(S(=O)(=O)O)cc(S(=O)(=O)O)c(N)c4c3O)c(OC)c2)ccc1N=Nc1ccc2c(S(=O)(=O)O)cc(S(=O)(=O)O)c(N)c2c1O | Herpes simplex virus | culture | Human conjunctiva cells |  | cytopathic effect | 10 µg/mL |  | inhibition | 30%
Nc1nc(N)c2c(n1)Cc1c(Cl)cccc1-2 | Cryptosporidium parvum | target |  | Dihydrofolate reductase |  |  | TYPE 1 | IC50 | >10 µM
O=C(Nc1ccc(S(=O)(=O)[O-])c2cccc(S(=O)(=O)[O-])c12)c1ccccc1 | Herpes simplex virus | culture | Human amnion AV3 cells |  | cytopathic effect | 50 µg/mL |  | inhibition | 0%
CC(=O)c1ccc(-c2cncc(N3CCN(c4ccccn4)CC3)n2)cc1 | Cytomegalovirus | target |  | UL97 kinase |  |  |  | IC50 | <10 µM
O=C(O)c1cc2nc(-c3ccc(Oc4ccccc4)cc3)cc(-c3ccc(Cl)c(Cl)c3)n2n1 | Hepatitis C virus | target |  | RNA-dependent RNA polymerase |  |  |  | IC50 | 1–10 µM